From US20080241276A1, “Portable bio-chemical decontaminant system and method of using the same” (published 2008)
Read-outs that look alike come from different tables or passages of the source.

Legend:
[1] = test system: various solutions of microorganisms; assay: In vitro suspension test (FIG. 19); conditions: 1 ppm, contact time approximately one minute
Pseudomonas aeruginosa [2] = assay: In vitro carrier testing (Germicidal Spray Test); conditions: 200 ppm, 10 minute exposure, glass carriers, 5% horse serum
Salmonella choleraesuis = assay: In vitro carrier testing (Germicidal Spray Test); conditions: 200 ppm, 10 minute exposure, glass carriers, 5% horse serum
[3] = test system: microbes deposited on hard substrates; assay: In vitro surface test (FIG. 20); conditions: 100 ppm, contact time ten minutes
Pseudomonas aeruginosa [4] = assay: In vitro carrier testing (Quantitative Use-Dilution Test); conditions: 40 ppm, 1 minute exposure, stainless steel carriers, 5% horse serum
Escherichia coli = assay: as above; conditions: 40 ppm, 1 minute exposure, stainless steel carriers, 5% horse serum
[5] = test system: Bacillus cereus vegetative cells; assay: Aqueous sporocidal testing, vegetative cells, 5-min treatment; conditions: after 5-min treatment
Bacillus cereus spores = conditions: for Population, spores / Reduction vs. Water, spores: after 5-min treatment
E. coli = assay: Antimicrobial efficacy (FIG. 7), one minute; conditions: lapse time one minute; below detection limit
poliovirus = assay: Antimicrobial efficacy (FIG. 7), one minute; conditions: lapse time one minute; below detection limit
S. choleraesuis = assay: Antimicrobial efficacy (FIG. 7), one minute; conditions: lapse time one minute; below detection limit
S. aureus = assay: Antimicrobial efficacy (FIG. 7), one minute; conditions: lapse time one minute; below detection limit
B. Cereus spores = assay: Antimicrobial efficacy (FIG. 7), one minute; conditions: lapse time one minute; below detection limit
rotavirus = assay: Antimicrobial efficacy (FIG. 7), one minute; conditions: lapse time one minute; below detection limit
FR = assay: Antimicrobial efficacy (FIG. 7), one minute; conditions: lapse time one minute; below detection limit
rhinovirus = assay: Antimicrobial efficacy (FIG. 7), one minute; conditions: lapse time one minute; below detection limit
P. aeruginosa = assay: Antimicrobial efficacy (FIG. 7), one minute; conditions: lapse time one minute; below detection limit

Question: chlorine dioxide was tested. Which “antimicrobial efficacy in suspension” value [1] did it give?
Answer: total kill

Question: And the log reduction (Pseudomonas aeruginosa [2])?
Answer: greater than or equal to 5 log

Question: And the log reduction (Salmonella choleraesuis)?
Answer: greater than or equal to 5 log

Question: And the surface test kill [3]?
Answer: complete kill

Question: And the log reduction (Pseudomonas aeruginosa [4])?
Answer: greater than or equal to 5 log

Question: And the log reduction (Escherichia coli)?
Answer: greater than or equal to 5 log

Question: And the “Population, vegetative cells” value ([5]; 5 ppm)?
Answer: 3.88 log10 cfu/ml

Question: What about the “Reduction vs. Water, vegetative cells” value ([5]; 5 ppm) of the same substance?
Answer: 1.52 log10 cfu/ml

Question: What about the “Population, vegetative cells” value ([5]; 10 ppm) of the same substance?
Answer: 3.88 log10 cfu/ml

Question: What about the “Reduction vs. Water, vegetative cells” value ([5]; 10 ppm) of the same substance?
Answer: 1.52 log10 cfu/ml

Question: And the “Population, vegetative cells” value ([5]; 50 ppm)?
Answer: 3.22 log10 cfu/ml

Question: And the “Reduction vs. Water, vegetative cells” value ([5]; 50 ppm)?
Answer: 2.18 log10 cfu/ml

Question: What about the “Population, vegetative cells” value ([5]; 100 ppm) of the same substance?
Answer: 0.15 log10 cfu/ml

Question: And the “Reduction vs. Water, vegetative cells” value ([5]; 100 ppm)?
Answer: 5.25 log10 cfu/ml

Question: And the “Population, vegetative cells” value ([5]; 200 ppm)?
Answer: <0.30^2 log10 cfu/ml

Question: What about the “Reduction vs. Water, vegetative cells” value ([5]; 200 ppm) of the same substance?
Answer: >5.10 log10 cfu/ml

Question: And the “Population, spores” value (Bacillus cereus spores; 5 ppm)?
Answer: 5.93 log10 cfu/ml

Question: What about the “Reduction vs. Water, spores” value (Bacillus cereus spores; 5 ppm) of the same substance?
Answer: 0.15 log10 cfu/ml

Question: And the “Population, spores” value (Bacillus cereus spores; 10 ppm)?
Answer: 5.72 log10 cfu/ml

Question: And the “Reduction vs. Water, spores” value (Bacillus cereus spores; 10 ppm)?
Answer: 0.36 log10 cfu/ml

Question: What about the “Population, spores” value (Bacillus cereus spores; 50 ppm) of the same substance?
Answer: 4.74 log10 cfu/ml

Question: What about the “Reduction vs. Water, spores” value (Bacillus cereus spores; 50 ppm) of the same substance?
Answer: 1.34 log10 cfu/ml

Question: What about the “Population, spores” value (Bacillus cereus spores; 100 ppm) of the same substance?
Answer: 0.20 log10 cfu/ml

Question: What about the “Reduction vs. Water, spores” value (Bacillus cereus spores; 100 ppm) of the same substance?
Answer: 5.88 log10 cfu/ml

Question: And the “Population, spores” value (Bacillus cereus spores; 200 ppm)?
Answer: <0.30 log10 cfu/ml

Question: And the “Reduction vs. Water, spores” value (Bacillus cereus spores; 200 ppm)?
Answer: >5.78 log10 cfu/ml

Question: What about the “log reduction of viable spore counts (complete kill)” value (Bacillus cereus spores; 200 ppm, within 5 min) of the same substance?
Answer: > 6 log

Question: What about the “log kill of Bacillus cereus spores” value (Bacillus cereus spores; FIG. 18, cocktail of five strains) of the same substance?
Answer: total kill

Question: What about the log kill (E. coli) of the same substance?
Answer: greater than 6 log

Question: And the log kill (poliovirus)?
Answer: greater than 4 log

Question: And the log kill (S. choleraesuis)?
Answer: greater than 5 log

Question: And the log kill (S. aureus)?
Answer: greater than 6 log

Question: And the log kill (B. Cereus spores)?
Answer: greater than 6 log

Question: And the log kill (rotavirus)?
Answer: greater than 4 log

Question: And the log kill (FR)?
Answer: greater than 5 log

Question: What about the log kill (rhinovirus) of the same substance?
Answer: greater than 5 log

Question: What about the log kill (P. aeruginosa) of the same substance?
Answer: greater than 6 log
